From PMC6429459, “The HslV Protease from Leishmania major and Its Activation by C-terminal HslU Peptides” (International Journal of Molecular Sciences, 2019) come the findings set out here.

The nature of data set [1]: Circular dichroism, α-helix content from θ at 222 nm. The format is physicochemical. The note with it: for Helicity%: 25 mM Tris-HCl pH 8.0, 20 °C, 100% helicity for θ = −36,000; for θmre at 222 nm: 25 mM Tris-HCl pH 8.0, around 200 μM peptide, 20 °C, 1 mm cuvette, 3 scans. As to the method:
CD spectra (Figure S2) were recorded on a JASCO J-815 spectropolarimeter from 190 to 260 nm (data pitch of 0.1 nm, continuous scanning mode, 200 nm/min, 3 scans) at 20 °C, using a 1 mm path length cuvette. Baseline was corrected by subtracting the background from the sample spectrum.
Peptides were solubilised in 50 mM Tris-HCl, pH 8.0 buffer at an estimated concentration of 400 μM according to their apparent molecular mass (i.e. M + xTFA with x = number of basic groups). The solutions were then diluted twice (25 mM Tris and around 200 μM peptides final concentrations) with: […]

Data set [2] in a line: Solubility in aqueous assay solutions (observation). Conditions: aqueous assay conditions, peptide concentrations in the millimolar range; in words.

Take “H-arg-O2Oc-Leu-Gln-Lys-Asn-Val-Asn-Leu-Ala-Lys-Tyr-Leu-Leu-OH [Compound 10]”: the Helicity% in data set [1] (0% TFE) is 3%; in data set [1] (25% TFE), 10%; in data set [1] (50% TFE), 12%. Further, the figures for the “θmre at 222 nm” value in data set [1] (0% TFE), in data set [1] (25% TFE) and in data set [1] (50% TFE) were −1186 deg.cm^2.dmol^−1, −3727 deg.cm^2.dmol^−1 and −4328 deg.cm^2.dmol^−1, respectively. For the same substance, the “Solubility of activating peptide” value in data set [2] is on record as “more soluble”.

Regarding “H-arg-O2Oc-Val-Asn-Leu-Ala-Lys-Tyr-Leu-Leu-OH [Compound 30]”, the Helicity% in data set [1] (0% TFE) was found to be 4%; in data set [1] (25% TFE), 10%; in data set [1] (50% TFE), 10%. The “θmre at 222 nm” value is given as −1377 deg.cm^2.dmol^−1 in data set [1] (0% TFE), −3519 deg.cm^2.dmol^−1 in data set [1] (25% TFE) and −3592 deg.cm^2.dmol^−1 in data set [1] (50% TFE).
